# System: S. aureus 33591 (MRSA)
# Settings: methicillin resistant
structure (smiles),measurement,value
"CN[C@H](CC(C)C)C(=O)N[C@H]1C(=O)N[C@@H](CC(N)=O)C(=O)N[C@H]2C(=O)N[C@H]3C(=O)N[C@H](C(=O)N[C@H](C(=O)O)c4cc(O)cc(O)c4-c4cc3ccc4O)[C@H](O)c3ccc(c(Cl)c3)Oc3cc2cc(c3O[C@@H]2O[C@H](CO)[C@@H](O)[C@H](O)[C@H]2O[C@H]2C[C@](C)(NCc3ccc(-c4ccc(Cl)cc4)cc3)[C@H](O)[C@H](C)O2)Oc2ccc(cc2Cl)[C@H]1O [CBP-vancomycin, chlorobiphenyl-vancomycin]",MIC,0.25 µg/mL
"C[C@@H]1O[C@@H](O[C@H]2[C@H](Oc3c4cc5cc3Oc3ccc(cc3Cl)[C@@H](O)[C@@H](N)C(=O)N[C@@H](CC(N)=O)C(=O)N[C@H]5C(=O)NC3C(=O)NC(C(=O)N[C@H](C(=O)O)c5cc(O)cc(O)c5-c5cc3ccc5O)[C@H](O)c3ccc(c(Cl)c3)O4)O[C@H](CO)[C@@H](O)[C@@H]2O)C[C@](C)(NCc2ccc(-c3ccc(Cl)cc3)cc2)[C@@H]1O (mixture of isomers) [CBP-dl-vancomycin, chlorobiphenyl-desleucyl-vancomycin]",MIC,6.26 µg/mL
